Results of unrelated studies side by side (data: NIAID ChemDB).

Common to all: whole-cell or culture tests; organism: Rhinovirus

Neighbouring rows are from separate reports.

SMILES | cell line | strain or isolate | method | measure | tested at | result
CSc1nsc(-c2ccc(OC(C)(C)C)cc2)c1C#N | HELA-OHIO | Serotype 41 (group B) | cytopathic effect | EC50 | - | >40 µM
N#Cc1ccc(C2=Cc3cc(C#N)ccc3OC2)cc1 | HeLa | Serotype 1B | cytopathic effect | EC25 | - | 8 µM
O=P1(O)OCC2O[C@@H](n3cnc4c(SCc5ccccc5)ncnc43)[C@H](O)C2O1 | - | TYPE 56 | - | MIC | - | 3.2 µg/mL
CCc1ccc(CCCOc2cc(C)c(-c3noc(C(F)F)n3)c(C)c2)nn1 | HeLa | serotypes 3 4 5 9 16 18 38 66 75 67 | cytopathic effect | EC80 | - | 1.414 µg/mL
O=C(Nc1ccc2c(O)c(N=Nc3ccc(N=Nc4ccc(S(=O)(=O)O)cc4)cc3)c(S(=O)(=O)O)cc2c1)c1ccccc1 | Human embryonic lung cells | - | cytopathic effect | inhibition | 10 µg/mL | 0%
N=C(N)c1ccc(C2=Cc3ccccc3OC2)cc1 | HeLa | Serotype 1B | cytopathic effect | EC25 | - | 40 µM
Cc1cccc(C2=CCN(c3ccc(Br)nn3)CC2)c1 | - | 100 serotypes | - | inhibition | 0.338 µg/mL | 53%
Cc1cc(CCCOc2c(C)cc(-c3nnn(C)n3)cc2C)on1 | - | Serotype 14 | - | MIC | - | 2.3 µM
CCOC(=O)c1ccc(OCCC2CCN(c3ccc(C)nn3)CC2)cc1 | - | Serotype 10 | - | EC90 | - | 0.06 µM
Cc1cc(CCCCCOc2cc(Cl)c(-c3nnc(C)o3)c(Cl)c2)on1 | - | Serotype 30 | - | MIC80 | - | 0.031 µg/mL
Cc1ccc(CCCCCOc2ccc(C3=NCCO3)cc2)s1 | - | serotype 1A 1B 2 6 14 15 21 22 25 30 41 50 67 86 89 | - | MIC80 | - | 30.39 µM
N#CCCNC(=O)C1CCC(=O)N1 | - | Serotype 2 | - | MIC | - | >100 µg/mL
CC(=O)c1ccc(CCCOc2c(C)cc(-c3noc(C)n3)cc2C)o1 | HeLa | 15 serotype mixtures | cytopathic effect | EC80 | - | 0.4 µM
CN=C1CCC(C(=O)NCCC(=N)N)N1 | - | Serotype 2 | - | MIC | - | >100 µg/mL
O=C(CCCCOc1ccc(C2=NCCO2)cc1)c1ccccc1 | - | serotype 1A 1B 2 6 14 15 21 22 25 29 30 41 42 45 59 63 67 70 72 86 89 | - | MIC80 | - | >51 µM
COCc1ccc(CCCOc2cc(C)c(-c3noc(C(F)(F)F)n3)c(C)c2)nn1 | HeLa | serotypes 3 4 5 9 16 18 38 66 75 67 | cytopathic effect | EC80 | - | 0.14 µg/mL
N#Cc1cc([N+](=O)[O-])ccc1Oc1ccc(Cl)c(Cl)c1 | VERO | TYPE 1A | - | inhibition | 3.125 µg/mL | 75%
CCCc1cc(CCCOc2c(C)cc(-c3nnc(C)o3)cc2C)on1 | HeLa | serotype 2 1A 1B 6 14 21 22 15 25 30 50 67 89 86 41 | plaque count | EC80 | - | 0.06 µg/mL
Nc1ccc2c(O)cc(S(=O)(=O)[O-])cc2c1S(=O)(=O)[O-] | Human embryonic lung cells | - | cytopathic effect | inhibition | 10 µg/mL | 70%
CSc1nsc(-c2ccc(OCCCOc3ccccc3)cc2)c1C#N | HELA-OHIO | Serotype 29 (group B) | cytopathic effect | EC50 | - | >20 µM
Nc1ccc2cc([N+](=O)[O-])cc(S(=O)(=O)[O-])c2c1 | Human embryonic lung cells | - | cytopathic effect | inhibition | 10 µg/mL | 60%
CCOC(=O)c1ccc(OCCC2CCN(c3ccc(C)nn3)CC2)cc1 | KB | 353 (ICAM-1 receptor group 13) | neutral red | EC50 | - | 0.108 µM
CCCc1cc(CCCOc2c(C)cc(-c3noc(C)n3)cc2C)on1 | HeLa | serotype 2 1A 1B 6 14 21 22 15 25 30 50 67 89 86 41 | plaque count | EC80 | - | 0.1 µg/mL
CSc1nsc(-c2ccc(OCc3ccccc3)cc2)c1C#N | HELA-OHIO | Serotype 89 (group B) | cytopathic effect | EC50 | - | 2 µM
Cc1cc(CCCOc2c(C)cc(-c3noc(C(F)(F)F)n3)cc2C)on1 | OHIO HELA-I | Isolate 16 | cytopathic effect / visual reading | EC50 | - | <0.01 µg/mL
CSc1nsc(-c2ccc(OCCCCOc3ccccc3)cc2)c1C#N | HELA-OHIO | Serotype 41 (group B) | cytopathic effect | EC50 | - | >20 µM
FC(F)(F)c1cccc(C2CCN(c3ccc(Cl)nn3)C2)c1 | - | 17 serotypes | - | inhibition | 0.005 µg/mL | 18%
O=c1cc(/C=C/c2ccccc2)oc2ccccc12 | HeLa | Serotype 14 | plaque count | EC10 | - | 25 µM
Cc1cc(-c2noc(C(F)(F)F)n2)cc(C)c1OCCCc1ccc(C(C)(F)F)nn1 | HeLa | serotypes 3 4 5 9 16 18 38 66 75 67 | cytopathic effect | EC80 | - | 0.17 µg/mL
Cc1cc(CCCCCOc2cc(Cl)c(-c3nnco3)c(Cl)c2)on1 | - | Serotype 6 | - | MIC80 | - | 7.06 µg/mL
N#Cc1ccc(C2=Cc3ccccc3OC2)cc1 | HeLa | Serotype 1B | cytopathic effect | EC25 | - | 40 µM
O=S(=O)([O-])c1cc(NS(=O)(=O)c2ccccc2)c2c(S(=O)(=O)[O-])cc(S(=O)(=O)[O-])cc2c1 | Human embryonic lung cells | - | cytopathic effect | inhibition | 50 µg/mL | 80%
Cc1cc(CCCCCCCOc2ccc(C3=NCCO3)cc2)on1 | - | TYPE 14 | - | MIC | - | 0.41 µM
Cc1cc(CCCCCCOc2ccc(C3=NCCO3)cc2)on1 | - | TYPE 2 | - | MIC | - | 0.1 µg/mL
CCSc1ncnc2c1ncn2[C@@H]1OC2COP(=O)(O)OC2[C@H]1O | - | TYPE 2 | - | MIC | - | 3.2 µg/mL
CN(C)c1nc(C(F)(F)F)nc2c1ncn2Cc1ccc(Cl)c(NC=O)c1 | M-HELA | Serotype 13 | plaque count | inhibition | 8 µM | 43%
CCN=C1CCC(C(=O)NCCC(=N)N)N1 | - | Serotype 2 | - | MIC | - | >100 µg/mL
CCOC(=O)c1cc(Cl)c(OCCCCC(=O)c2ccc(OC)cc2)c(Cl)c1 | - | serotype 1A 1B 2 6 14 15 21 22 25 29 30 41 42 45 59 63 67 70 72 86 89 | - | MIC80 | - | >39 µM
Cc1cc(CCCOc2c(C)cc(-c3nc(C)no3)cc2C)on1 | - | Serotype 14 | - | MIC | - | 0.19 µM
CCc1cc(CCCOc2c(C)cc(-c3nnc(C)o3)cc2C)on1 | HeLa | serotype 2 1A 1B 6 14 21 22 15 25 30 50 67 89 86 41 | plaque count | EC80 | - | 0.15 µg/mL
CC(=O)Nc1ccc(Cn2cnc3c(Nc4cccc(F)c4)nc(C(F)(F)F)nc32)cc1 | M-HELA | Serotype 1B | plaque count | EC50 | - | 0.4 µM
Cc1cc(OCCCc2ccc(Br)nn2)cc(C)c1-c1noc(C(F)F)n1 | HeLa | serotypes 3 4 5 9 16 18 38 66 75 67 | cytopathic effect | EC80 | - | 0.05 µg/mL
CSc1nsc(-c2ccc(OCCCCOc3ccc([N+](=O)[O-])cc3)cc2)c1C#N | HELA-OHIO | Serotype 59 (group B) | cytopathic effect | EC50 | - | >0.5 µM
CC(CC(=N)N)NC(=O)C1CCC(N)=N1 | - | Serotype 2 | - | MIC | - | >100 µg/mL
CN(C)c1nc(C(F)(F)F)nc2c1ncn2Cc1ccc(S(C)(=O)=O)cc1 | M-HELA | Serotype 15 | plaque count | inhibition | 8 µM | 47%
Cc1ccc(N2CCC(c3cccc(C(F)(F)F)c3)C2)nn1 | - | 17 serotypes | - | inhibition | 2.75 µg/mL | 71%
Nc1nc2c(ccn2[C@@H]2C[C@H](CO)[C@@H](O)[C@H]2O)c(=O)[nH]1 | - | TYPE 1B | - | MIC | - | >100 µg/mL
CC(=O)c1cc(CCCOc2c(C)cc(-c3noc(C)n3)cc2C)co1 | HeLa | 15 serotype mixtures | cytopathic effect | EC80 | - | 0.3 µM
CCOC(=O)c1ccc(OCCOc2ccc(-c3snc(SC)c3C#N)cc2)cc1 | HELA-OHIO | Serotype 45 (group A) | cytopathic effect | EC50 | - | >2 µM
Fc1cccc(Cn2cnc3c(Nc4cccc(F)c4)nc(C(F)(F)F)nc32)c1 | M-HELA | Serotype 16 | plaque count | EC50 | - | 1.4 µM
CN(C)c1nc(C(F)(F)F)nc2c1ncn2Cc1ccc(Cl)cc1Cl | M-HELA | Serotype 14 | plaque count | inhibition | 8 µM | 35%
N=C(N)CCNC(=O)C1CCCC(N)=N1 | - | Serotype 2 | - | MIC | - | 100 µg/mL
COc1ccc(C(=O)CCCCOc2c(Cl)cc(C3=NCCO3)cc2Cl)cc1 | - | serotype 1A 1B 2 6 14 15 21 22 25 29 30 41 42 45 59 63 67 70 72 86 89 | - | MIC80 | - | >237 µM
Cc1ccc(Cn2cnc3c(N(C)C)nc(C(F)(F)F)nc32)c(C)c1 | M-HELA | Serotype 30 | plaque count | inhibition | 8 µM | 33%
Cc1cc(-c2ccc(N=Nc3c(S(=O)(=O)O)cc4cc(S(=O)(=O)O)cc(N)c4c3O)c(C)c2)ccc1N=Nc1c(S(=O)(=O)O)cc2cc(S(=O)(=O)O)cc(N)c2c1O | Human embryonic lung cells | - | cytopathic effect | inhibition | 10 µg/mL | 0%
COc1ccc(CCCOc2cc(C)c(-c3noc(C(F)F)n3)c(C)c2)nn1 | HeLa | serotypes 3 4 5 9 16 18 38 66 75 67 | cytopathic effect | EC80 | - | 0.15 µg/mL
CSc1nsc(-c2ccc(OCCOc3ccc([N+](=O)[O-])cc3)cc2)c1C#N | HELA-OHIO | Serotype 85 (group B) | cytopathic effect | EC50 | - | >2 µM
CCCCCCCCCCCCCCOc1ccc(C(C)=O)o1 | - | 100 serotypes | - | inhibition | 0.091 µg/mL | 18%
CSc1nsc(-c2ccc(OCCOc3ccc(C#N)cc3)cc2)c1C#N | HELA-OHIO | Serotype 2 (group B) | cytopathic effect | EC50 | - | >2 µM
Cc1cc(CCCCCOc2ccc(C3=NCCO3)cc2C)on1 | - | TYPE 14 | - | MIC | - | 0.8 µM
CC1(C)COC(c2ccc(OCCN3CCN(c4ccc(Cl)nn4)CC3)cc2)=N1 | - | 100 serotypes | - | inhibition | 0.55 µg/mL | 18%
CSc1nsc(-c2ccc(OCCCc3ccccc3)cc2)c1C#N | HELA-OHIO | Serotype 59 (group B) | cytopathic effect | EC50 | - | >20 µM

3 of the rows above, restated:

CCc1cc(CCCOc2c(C)cc(-c3nnc(C)o3)cc2C)on1 ; cell line: HeLa ; strain or isolate: serotype 2 1A 1B 6 14 21 22 15 25 30 50 67 89 86 41 ; method: plaque count ; measure: EC80 ; result: 0.15 µg/mL
N#Cc1cc([N+](=O)[O-])ccc1Oc1ccc(Cl)c(Cl)c1 ; cell line: VERO ; strain or isolate: TYPE 1A ; measure: inhibition ; tested at: 3.125 µg/mL ; result: 75%
Cc1cc(OCCCc2ccc(Br)nn2)cc(C)c1-c1noc(C(F)F)n1 ; cell line: HeLa ; strain or isolate: serotypes 3 4 5 9 16 18 38 66 75 67 ; method: cytopathic effect ; measure: EC80 ; result: 0.05 µg/mL

Percent inhibition refers to the dose given; in toxicity tests it is the harm to the cells. ECn is the concentration giving n% inhibition of infection, replication or growth. Blank or dashed fields: not listed here. MIC50, MIC90 and the like: level of inhibition, or share of isolates inhibited.